In general, Kd refers to the equilibrium constant for the complex coming apart. A word on the koff: it is a measure of how fast the partners let go of each other. The term kon denotes the rate constant with which the complex forms. A lower kon goes with slow association.

One assay has as its target Abrus agglutinin (Abrus precatorius, UniProt Q9M6E9). Description: SPR. (SPR reads the build-up and loss of mass on a sensor chip optically.)
A further assay has as its target ricin (Ricinus communis, UniProt P02879). Description: Luminex direct binding (microsphere fluorescence immunoassay).
The target of another assay is ricin A chain (Ricinus communis, UniProt P02879). The assay is described as above.
A further assay addresses ricin B chain (Ricinus communis, UniProt P02879). The assay is described as above.
The target in assay [1] is Ricinus communis Agglutinin (RCA120) (Ricinus communis, UniProt P06750). The description is as above.

B1: sdAb Abr2 (VHH)
VHH: DVQLQASGGGLVQAGGSLVLSCTASGRSVSSLAMGWLRQVPGKERELVGSISLSGGRTYYADSMKGRFTISKDNAKNTVALQMNSLRPEDTAVYYCAARDAARDYAPLNFDTWGQGTQVTVSS
notes: source: E. coli Rosetta, soluble sdAb expression vector
For the molecule B1, in the assay with Abrus agglutinin, binding was characterised by a dissociation constant (Kd) of 0.014 nM. This molecule also came in with a koff with Abrus agglutinin of 1.6e-05 s⁻¹. The same molecule gave a kon with Abrus agglutinin of 1.1e+06 M⁻¹ s⁻¹. Also, the binding result (with ricin; with ricin A chain; in the assay with ricin B chain; in assay [1]) was “no binding” throughout.

B2: sdAb Abr1 (VHH)
VHH: EVQLQASGGGLVQAGGSLRLSCAASGSDGSLEIMGWYRQAPGKQRELVARATSGGLKNYADSVKGRFTISGDLDKNTVYLQMNSLQPEDTGVYVCHLGVVASTYRDYWGQGTQVTVSS
notes: as for B1
B2: the binding result with Abrus agglutinin was “no binding (tested: up to 30 nM)”; in the assay with ricin it was “no binding”; in the assay with ricin A chain, “no binding”; with ricin B chain, “no binding”; in assay [1], “no binding”.

B3: sdAb N5 (VHH)
VHH: EVQLEESGGGLVQPGGSLRVSCAASGFAFSGYAMGWFRQAPGKEREFVAGISRTDNYRPYADSVKGRFAISRDNAQNMVYLQMNSLKPEDTAVYYCAADRLGVPTPNSADYQYWGQGTQVIVSS
notes: as for B1
With B3, in the assay with Abrus agglutinin, binding was put at a Kd of 0.29 nM, the koff was found to be 5.3e-05 s⁻¹ and the on-rate (kon) was 180000 M⁻¹ s⁻¹. The binding result with ricin is “binds”.

B4: sdAb Abr6 (VHH)
VHH: EVQLQASGGGLVQAGGSLRLSCVVSGTTISISAVGWYRQAPGKERDMVARISSGGSNTDYVANVQGRFTVSRDNAKNTAYLQMNNLKPEDTAVYYCHVRPATWGQSRGYWGQGTQVTVSS
notes: as for B1
In the assay with Abrus agglutinin, B4 yielded a Kd of 0.29 nM, a koff of 2.6e-05 s⁻¹ and an on-rate (kon) of 91000 M⁻¹ s⁻¹. In addition, the binding result with ricin B chain is “binds”.

B5: sdAb Abr4 (VHH)
VHH: EVQLVESGGGLVQAGRSLILSCSASGGIFTNMGMGWYRQAPGKQREVVAQITNRGRTNYGESVKGRFTISRDNAQRTAYLQMNSLKPEDTAVYYCRTNYGGRDYWGQGTQVTVSS
notes: as for B1
Consider B5, for which, in the assay with Abrus agglutinin, the Kd worked out at 0.95 nM, the koff amounted to 0.00049 s⁻¹ and the kon was found to be 510000 M⁻¹ s⁻¹. In addition, the binding result with ricin B chain is reported as “binds”.

B6: sdAb Abr11 (VHH)
VHH: DVQLQASGGGLVRAGGSLRLSCAVSGLTVSHAPSAWYRQAPGKQRDWVARLSMRGLTDYEDSVKGRFTISRDNAKNTVYLQMDSLKPEDTAVYFCKAGLNYWGQGIQVTVSS
notes: as for B1
On to B6, for which, in the assay with ricin B chain, the binding result is on record as “binds”.

B7: sdAb N12 (VHH)
VHH: EVQLQASGGGMVQGGGSLRLSCAASAHTFSDYAMGWFRQAPGKERSLVAAINRSGGRTWYTDSVRGRFTISRDNAKNTVYLQMDKLKPEDTAVYYCAAKSTHRDYAALNDYNYWGQGTQVTVSS
notes: as for B1
In the assay with Abrus agglutinin, B7 gave a Kd of 0.0026 nM, a koff of 4.2e-06 s⁻¹ and a kon of 1.6e+06 M⁻¹ s⁻¹.

B8: sdAb Abr5 (VHH)
VHH: EVQLQASGGGLVQAGGSLRLSCVVSGLSVGLNPVAWYRQAPGQQRDWVARMSMRGLTDYPDSLKGRAIISRDNAKNTVSLQMDSLKPEDTAVYFCKVGLSYWGQGTQVTVSS
notes: as for B1
Turning to B8, the binding result (in the assay with ricin; with ricin A chain; in the assay with ricin B chain; in assay [1]) was “no binding” each time.

The record behind these values is PMC3237003 (Toxins, 2011).
